For 1 molecule, drug delivered results are on record in patent US6387886B1, “Method for the treatment of severe chronic bronchitis (bronchietasis) with an aerosolized antibiotic” (Chiron Corporation, priority 1998, dated 2002).

This series is described as follows: In vitro comparative nebulizer evaluation. The conditions noted are these: ultrasonic DeVilbiss 99 nebulizer, 600 mg.

Regarding `NC[C@H]1O[C@H](O[C@H]2[C@H](O)[C@@H](O[C@H]3O[C@H](CO)[C@@H](O)[C@H](N)[C@H]3O)[C@H](N)C[C@@H]2N)[C@H](N)C[C@@H]1O` [tobramycin], the drug delivered worked out at 33 mg/mL.
